Here are results for 3 sequences from article PMC7298118.

The target in data set [1] is T1, His6-Fur (Klebsiella pneumoniae NTUH-K2044) (UniProt A0ACD7TZA3). The data set is described as follows: EMSA. The conditions noted are these: 500 uM MnCl2, 5 mM MgCl2; recombinant protein; residues 1-150; protein details: His6 (pET-28a); label: none (SYBR Green stain); probe letters rebuilt from the primers and the genome. In general terms: Mobility shift assays separate free from complexed probe on a gel.

The target in data set [2] is T1, His6-Fur (Klebsiella pneumoniae NTUH-K2044). Briefly: DNase I footprinting. The conditions noted are these: His6-Fur 0, 0.5, 1 ug; recombinant protein; residues 1-150; protein details: His6 (pET-28a); label: FAM (M13F-47 primer); probe letters rebuilt from the primers and the genome; part of a longer molecule.

For part of these data: The exact form of at least one protein or probe is not confirmed.

For “ACCTCCATCGCCTCCAGCGGCGCGGCATAGCGGGCGGAACGCTGCTTTTCCGGGCGAGAGAACGCTTCCCAGCGCTCGGGGATATAGAGCTCGGAAGGCTGACAGGTGTCGAACGGGATAGCCCCGACCATCACCGGCTTGCGGATCCCCGCCGTCCGGGCCTCGGCAAAGGCGGCCGCCATCTGCTGCTGGAACTCGCCGTCCAGCGCATCGCCGCCAACGGCGGGCTGTGAGAAGCGACGGAAGCGGCCTGAAGTGGTAAAACTGCGGTACGGCGACATAAAGAAGAAGCTGTCCGGCGACAGGGTCCGGGTCGGTTTCTTTACATCCTCAGCCAGTGACGTTTCCATATCATCCTCCAAAAACGATAAAGATATTAAGAATAATTATCATTTATATTTTGGTTGGCTAACCTAAAAGGTATTGCCCGCCATGTCAACCGCGTTACGTCATGGCGCCGCCACTTTGGCTTGCATCCTGCTGACACAAAGTTGAAAATGAGACGCATTTATCACCTTTCAAATCAGGATGCGATGACGTGAACTTCTTTTCTTTCTGCCGCCGCGGTGCGCTGACCGGCATGCTGTTGCTTTTAGGAATTACCTCAGCCCAGGCGGCGGACTGGCCGCGCCAGGTCACCGACAGCTACGGGACGCATACC (double strand) [entC promoter, Fur EMSA fragment]”, in data set [1], the binding result was “binds”.
In the case of “AGTGGTAAAACTGCGGTACGGCGACATAAAGAAGAAGCTGTCCGGCGACAGGGTCCGGGTCGGTTTCTTTACATCCTCAGCCAGTGACGTTTCCATATCATCCTCCAAAAACGATAAAGATATTAAGAATAATTATCATTTATATTTTGGTTGGCTAACCTAAAAGGTATTGCCCGCCATGTCAACCGCGTTACGTCATGGCGCCGCCACTTTGGCTTGCATCCTGCTGACACAAAGTTGAAAATGAGACGCATTTATCACCTTTCAA (double strand) [entC promoter, Fur footprint probe]”, the binding result in data set [2] is “binds”.
With “CATCATTCATCCCACAAGCCGATAAAAAAGTATTGTGGCATTAAAGCGTTAAGCCTTCCACCCCCACCGCAAAGGGATAAGCGAGCAAGCCAGCAACCGCTAACGTGGGTTTCATTTGAAGTAAGGAAATTCTGAAAGTAAAAGAATACTGGGCGCGTAACCATAGCATCTATGGGCACTTTTTGTTTTTAATTCGGTCACACTACCGGTTCTTGACTTTACTTTAAGAGTTTTCCTGGCAAATTATATGCATAGATGCGGAATAGTTTAATGGAGCTAATGGGTTCTTTCTAAACCTACTATTATTATCGCCCGCAAGGACTGCTTCGCACAGCCAGTGCGAAGTGTATATCGTTACGTGTTGATTGAGGATGGGTCATGTCAACGATGATTATGGATTTGTGCAGCTATACCCGGTTGGGATTGACGGGATATCTGACCAGTCGGGGAATTAAAAAACAGGAAATCGTTGAGGTCAACAGTGCTGCGGATCTGCAGAAACACTGTACGTCGTGTTGCCCGGCGGTGGTGTTTCTGAATGAAGACTGTTTCGTGCATGATGATGAAAGTAATGGCATTATTCGCCAGATCATTACGCAAAACCCGGCGACGCTGTTTGTTATCTT (double strand) [rcsA promoter, Fur EMSA fragment]”, the binding result in data set [1] was “binds”.
